Reference: paper PMC8026907
Construct, isoform or probe ends are uncertain for at least one entry. At least one verdict was read from the data and is not stated in words by the source. Tags and fusion partners may be left off the protein sequences shown.

molecular target: T1, CRP-MTB (cAMP receptor protein, wild type) (Mycobacterium tuberculosis) (UniProt P9WMH3); experiment: EMSA; conditions: recombinant protein
T1 sequence (looked up, limits assumed): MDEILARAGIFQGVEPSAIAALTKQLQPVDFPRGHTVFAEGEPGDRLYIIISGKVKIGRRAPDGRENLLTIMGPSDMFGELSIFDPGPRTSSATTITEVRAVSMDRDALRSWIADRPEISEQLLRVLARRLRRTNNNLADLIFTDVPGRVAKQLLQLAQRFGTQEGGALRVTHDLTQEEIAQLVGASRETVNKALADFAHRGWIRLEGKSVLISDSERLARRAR

Sequence	binding result
TAGTGTGAACAAGCTCACATGC (double strand) [SerC promoter 22-bp (EMSA)]	binds
GTAGTGTGAACAAGCTCACATGCA (double strand) [SerC promoter 24-bp (EMSA)]	binds
CGTAGTGTGAACAAGCTCACATGCAA (double strand) [SerC promoter 26-bp (EMSA)]	binds
